Test results published in patent publication US20200002406A1 (Janssen / Centocor, published 2020).

Experiments:
Assay in all cases: cell-based or functional assay
[1] = target: T1, neuraminidase (NA) of influenza B virus B/Florida/04/2006 (Yamagata lineage) (Influenza B virus B/Florida/04/2006)
[2] = target: neuraminidase (NA) of influenza A virus H1N1 strain A/New Caledonia/20/1999 (Influenza A virus A/New …)
[3] = target: T1, neuraminidase (NA) of influenza B virus …; remark: listed apart in the source
[4] = target: neuraminidase (NA) of influenza A virus H3N2 strain A/Perth/16/2009 (Influenza A virus A/Perth/16/2009 (H3N2))

B1: CR14012 (antibody, V domains shown)
VH: QVQLQESGGGVVQPGRSLRLSCAASGFSFSTYGMHWVRQAPGKGLEWVAVISYDGSNKYYADSVKGRFTISRDNAKNTLYLQMNSLRAEDTAVYYCGRDSGYTTNWYPGGYWGQGTLVTVSS
VL: not shown
notes: also called sc14-012; anti-NA IgG
> 50 µg/mL: Virus neutralization assay (VNA) on MDCK-SIAT1 cells, IC50 [1] | Neuraminidase inhibition activity, EC50 (NA-XTD assay, whole virus) [2] | Neuraminidase inhibition activity, EC50 (NA-XTD assay, whole virus) [3] | Neuraminidase inhibition activity, EC50 (NA-XTD assay, whole virus) [4]

B2: CR14017 (antibody, V domains shown)
VH: EVQLVETGGGVVQPGRSLRLSCAASGFTFNTHAMHWVRQAPGKGLEWLAVISYDGNIKYYADSVKGRFTISRDSSKNTLYLLMNSLRAEDTAIYYCARDRGDYNYLPSDYWGQGTLVTVSS
VL: not shown
notes: also called sc14-017; anti-NA IgG
> 50 µg/mL: Virus neutralization assay (VNA) on MDCK-SIAT1 cells, IC50 [1] | Neuraminidase inhibition activity, EC50 (NA-XTD assay, whole virus) [2] | Neuraminidase inhibition activity, EC50 (NA-XTD assay, whole virus) [3] | Neuraminidase inhibition activity, EC50 (NA-XTD assay, whole virus) [4]
